Anti-infective test results gathered from many reports (values: NIAID ChemDB through PubChem).

Common to all: growth or infection tests; species: Cryptococcus neoformans; endpoint: MIC

Two numbers with a dash give a range or band.

{"compound": "c1ccc(C(c2cnn(-c3ccccc3)c2)n2ccnc2)cc1", "value": "200 µM"}
{"compound": "Cc1nc(C)c(C2=NNC(SCc3ccc(C(F)(F)F)cc3)N2C2C3CC4CC(C3)CC2C4)s1", "strain or isolate": "PLM 589", "value": "25 µg/mL"}
{"compound": "ONC1=Nc2cnc3ccccc3c2SC1", "strain or isolate": "IMAT4711", "value": "25 µg/mL"}
{"compound": "CSc1cc(-c2ccc(F)cc2)c(C(=O)O)s1", "strain or isolate": "CN-17", "value": ">100 µg/mL"}
{"compound": "Cc1cc(O)c2c(c1)C(=O)c1cc(C(=O)O)cc(O)c1C2=O", "value": "50 µg/mL"}
{"compound": "CC1CC(NOC(=O)c2ccccc2)=Nc2ccccc2S1", "strain or isolate": "IMAT4711", "value": "50 µg/mL"}
{"compound": "COc1cc(O)c2c(c1)C(=O)c1c(cc3c(c1O)-c1c(cc(C)c(C(=O)NC(CO)C(=O)O)c1O)[C@H](OC1OC(C)C(N(C)C)C(OC4OCC(O)C(O)C4O)C1O)[C@H]3O)C2=O", "strain or isolate": "IAM 4514", "value": "1.6 µg/mL"}
{"compound": "COC(=O)c1ccc(N2C(=O)C(OC(C)=O)C2c2ccc(OC)cc2)cc1", "strain or isolate": "AH27/A", "value": "33.87 µM"}
{"compound": "C[C@@H]1CCC2(OC1)OC1CC3C4C[C@H](OC5O[C@@H](CO)[C@H](O)[C@@H](O)[C@@H]5O)[C@H]5C[C@@H](OC6O[C@H](CO)[C@@H](O)[C@H](O)[C@H]6O)CC[C@]5(C)C4CC[C@]3(C)C1[C@@H]2C", "strain or isolate": "ATCC 90113", "value": "20 µg/mL"}
{"compound": "Cc1nnsc1-c1n[nH]c(=S)n1-c1ccc2ccccc2c1", "strain or isolate": "PLM 589", "value": "6.25 µg/mL"}
{"compound": "CC1(C)CC[C@]2(C)CC=C3[C@]4(C)CCC5C(C)(C)[C@@H](O)CC[C@]5(C)C4CC[C@@]3(C)C2C1", "read by": "absorbance", "value": ">250 µg/mL"}
{"compound": "CN1C(c2ccccc2)C/C(=N\\OCc2ccccc2)C(Cl)C1c1ccccc1", "value": "50 µg/mL"}
{"compound": "CCOC(=O)c1sc(SC)cc1-c1ccc(Br)cc1", "strain or isolate": "CN-17", "value": ">100 µg/mL"}
{"compound": "c1ccc(-c2c(C(c3ccccc3)n3ccnc3)cnn2-c2ccccc2)cc1", "value": "22 µM"}
{"compound": "CC(=O)O[C@@H]1C(=O)N(c2ccc(C(=O)O)cc2)[C@H]1c1ccc2c(c1)OCO2", "strain or isolate": "AH27/A", "value": "135.5 µM"}
{"compound": "Cc1nc(N)nc(N)c1C#CC1CCCC1", "value": "0.1 µg/mL"}
{"compound": "CCCCCCC(Cn1ccnc1)c1c(Cl)cccc1Cl", "value": "<1 µg/mL"}
{"compound": "S=C(NNC1=Nc2ccc3ccccc3c2SC1)Nc1ccccc1", "strain or isolate": "IMAT4711", "value": "50 µg/mL"}
{"compound": "COc1ccc(/C=C2\\CSc3ccc(Cl)cc3C2=O)cc1OC", "strain or isolate": "25", "value": "6 µg/mL"}
{"compound": "CCCCCCCCCCCCC(C)(O)C1CC(=O)NC(CO)C(=O)N[C@H](C)C(=O)NC(CC(=O)O)C(=O)NC(CC(N)=O)C(=O)NC(CC(N)=O)C(=O)NC(CO)C(=O)NC([C@@H](C)O)C(=O)O1", "strain or isolate": "ATCC90112", "value": "32 µg/mL"}
{"compound": "CC(C)([C@](O)(Cn1cncn1)c1ccc(C(F)(F)F)cc1)S(C)(=O)=O", "strain or isolate": "30 strains", "value": "4–256 µg/mL"}
{"compound": "Cc1ccc(N2C(=O)[C@@H](O)[C@H]2/C=C/c2ccccc2)cc1", "strain or isolate": "AH27/A", "value": "5.37 µM"}
{"compound": "CCC(C)n1ncn(-c2ccc(N3CCN(c4ccc(OC[C@H]5CO[C@](Cn6cncn6)(c6ccc(Cl)cc6Cl)O5)cc4)CC3)cc2)c1=O", "strain or isolate": "TIMM1740", "value": "0.06 µg/mL"}
{"compound": "O=C1C(O)C2(c3ccccc3)SCCCN12", "strain or isolate": "AH27/A", "value": "53.19 µM"}
{"compound": "Fc1ccc(C(Cn2ccnc2)NC/C=C/c2ccccc2)cc1", "value": ">50 µg/mL"}
{"compound": "CSC1NN=C(c2snnc2C)N1C1C2CC3CC(C2)CC1C3", "strain or isolate": "PLM 589", "value": "12.5 µg/mL"}
{"compound": "CCOC(=O)c1sc(SC)c(C(=O)OC)c1O", "strain or isolate": "CN-17", "value": "12.5 µg/mL"}
{"compound": "O=C(ONC1=Nc2ccccc2SCC1)c1ccccc1", "strain or isolate": "IMAT4711", "value": ">100 µg/mL"}
{"compound": "c1ccc(C(c2cnn(-c3ccccc3)c2)n2cncn2)cc1", "value": ">200 µM"}
{"compound": "CCCCCC(Cn1ccnc1)c1ccccc1Br", "value": "10 µg/mL"}
{"compound": "CC(N1CCN(c2ccc(-n3ccnn3)cc2)C1=O)C(O)(Cn1cncn1)c1ccc(F)cc1F", "strain or isolate": "TIMM1855", "value": "0.13 µg/mL"}
{"compound": "C[C@H](n1nnc(CCN2CCN(c3cccc(Cl)c3)CC2)n1)[C@](O)(Cn1cncn1)c1ccc(F)cc1F", "strain or isolate": "LA314", "value": ">16 µg/mL"}
{"compound": "Clc1ccc(C(Cn2ccnc2)NCc2ccc(-c3ccccc3)cc2)cc1", "value": "1.5 µg/mL"}
{"compound": "ONC1=Nc2cc(Cl)ccc2SC1", "strain or isolate": "IMAT4711", "value": "10 µg/mL"}
{"compound": "CCc1ccc(/C=C2\\CCc3ccccc3C2=O)cc1", "strain or isolate": "25", "value": "12.5 µg/mL"}
{"compound": "CCCCn1c(-c2sc(C)nc2C)n[nH]c1=S", "strain or isolate": "PLM 589", "value": "3.12 µg/mL"}
{"compound": "CC(=O)ONC1=Nc2cc(Cl)ccc2SC1", "strain or isolate": "IMAT4711", "value": "10 µg/mL"}
{"compound": "C[C@H](n1nnc(CCN2CCN(c3ccccc3Cl)CC2)n1)[C@](O)(Cn1cncn1)c1ccc(F)cc1F", "strain or isolate": "LA314", "value": "8 µg/mL"}
{"compound": "Cn1ncc(C(c2ccccc2)n2cncn2)c1-c1ccccc1", "value": ">200 µM"}
{"compound": "CCOC(=O)c1sc(SC)cc1-c1ccccc1", "strain or isolate": "CN-17", "value": ">100 µg/mL"}
{"compound": "C[C@@H](SC1COC(/C=C/C=C/c2ccc(C#N)cc2F)OC1)[C@](O)(Cn1cncn1)c1ccc(F)cc1F", "strain or isolate": "TIMM1855", "value": "≤0.008 µg/mL"}
{"compound": "CC(N1CCN(c2ccc(-n3cncn3)cc2)C1=O)C(O)(Cn1cncn1)c1ccc(F)cc1F", "strain or isolate": "TIMM1855", "value": "0.13 µg/mL"}
{"compound": "Cc1c(NC(=O)CSC(=S)N2CCCCC2C)c(=O)n(-c2ccccc2)n1C", "strain or isolate": "KUEN 1048", "value": "12.5 µg/mL"}
{"compound": "COc1ccc2c(c1)C(=O)/C(=C/c1ccccc1OC)CO2", "strain or isolate": "93/V", "value": "6 µg/mL"}
{"compound": "CC(N1CCN(c2ccc(-n3ncnn3)cc2)C1=O)C(O)(Cn1cncn1)c1ccc(F)cc1F", "strain or isolate": "TIMM1855", "value": "0.06 µg/mL"}
{"compound": "CCC(O)/C=C/C=C/C=C/C(=O)OC[C@H]1O[C@@H](O[C@H]2[C@H](OC(=O)/C=C/C=C/CC(O)/C(C)=C/C=C/CCC(C)CC)[C@@H](O)[C@@]3(OCc4cc(O)cc(O)c43)O[C@@H]2CO)[C@H](O)[C@@H](O)[C@H]1O", "strain or isolate": "IAM 4514", "value": ">100 µg/mL"}
{"compound": "CCCCCCCC(Cn1ccnc1)c1c(Cl)cccc1Cl", "value": "<1 µg/mL"}
{"compound": "c1ccc(C(Cn2ccnc2)NCc2cccc3ccccc23)cc1", "value": ">50 µg/mL"}
{"compound": "OC(Cn1cncn1)(Cn1cncn1)c1ccc(F)cc1F", "strain or isolate": "ATCC MYA-737", "read by": "broth dilution", "value": "1.6 µg/mL"}
{"compound": "COc1cc2nccc3c4ccccc4n(c1=O)c23", "value": "45.4 µM"}
{"compound": "C[N+](C)(C)CCOP(=O)([O-])OCCCCCCCCCCCCCCCCCCCCCCOP(=O)([O-])OCC[N+](C)(C)C", "value": "0.04 µg/mL"}
{"compound": "Cc1c(C(c2ccccc2)n2ccnc2)cnn1-c1ccccc1", "value": "200 µM"}
{"compound": "CCCCCOc1ccc(-c2cc(-c3ccc(C(=O)N[C@H]4C[C@@H](O)[C@@H](O)NC(=O)[C@@H]5[C@@H](O)[C@@H](C)CN5C(=O)[C@H]([C@H](O)CC(N)=O)NC(=O)[C@H]([C@H](O)[C@@H](O)c5ccc(O)c(OS(=O)(=O)O)c5)NC(=O)[C@@H]5C[C@@H](O)CN5C(=O)[C@H]([C@@H](C)O)NC4=O)cc3)no2)cc1", "strain or isolate": "YC203", "read by": "broth dilution", "value": ">50 µg/mL"}
{"compound": "CC(C)=CCC1=CC(=O)C(=O)C(C)=C1O", "strain or isolate": "ATCC90112", "value": "75 µg/mL"}
{"compound": "CCc1c(C(c2ccccc2)n2ccnc2)cnn1-c1ccccc1", "value": "200 µM"}
{"compound": "CCCCCCC(Cn1ccnc1)c1ccccc1Cl", "value": "<1 µg/mL"}
{"compound": "COC(=O)NC1=Nc2ccc3ccccc3c2SC1", "strain or isolate": "IMAT4711", "value": "50 µg/mL"}
{"compound": "CC(=O)OC1C(=O)N2CCCSC12c1ccccc1", "strain or isolate": "AH27/A", "value": "90.25 µM"}
{"compound": "Cc1nnsc1C(=O)NNC(=S)NC12CC3CC(CC(C3)C1)C2", "strain or isolate": "PLM 589", "value": "25 µg/mL"}
{"compound": "CCOC(=O)c1sc2cc(-c3cc(F)c(Cl)cc3Cl)oc(=O)c2c1N", "strain or isolate": "CN-17", "value": ">100 µg/mL"}
{"compound": "CC(=O)OC1C(=O)N2CCCS(=O)(=O)C12c1ccccc1", "strain or isolate": "AH27/A", "value": "19.41 µM"}
{"compound": "Cc1nc(N)nc(N)c1C#CC(C)C", "value": "1.6 µg/mL"}
{"compound": "Clc1ccc(C(Cn2ccnc2)NCc2cccc3ccccc23)cc1", "value": ">50 µg/mL"}
{"compound": "CSc1cc(-c2ccc(-c3cccnc3)cc2)c(C(=O)O)s1", "strain or isolate": "CN-17", "value": ">100 µg/mL"}
{"compound": "COc1ccc2c(c1)C(=O)/C(=C/c1ccc3c(c1)CC3)CO2", "strain or isolate": "25", "value": "25 µg/mL"}
{"compound": "CC(N1CCN(c2ccc(-n3cnnn3)cc2)C1=O)C(O)(Cn1cncn1)c1ccc(F)cc1F", "strain or isolate": "TIMM1740", "value": "0.03 µg/mL"}
{"compound": "CCCCCC(Cn1ccnc1)c1ccc(Br)cc1", "value": "<1 µg/mL"}
{"compound": "CCOC(=O)c1sc(SC)cc1-c1ccc(C)cc1", "strain or isolate": "CN-17", "value": ">100 µg/mL"}
{"compound": "Clc1ccc(C(Cn2ccnc2)NCc2ccc(-c3ccccc3)cc2)c(Cl)c1", "value": "3 µg/mL"}
{"compound": "CC(=O)OC1C(=O)N(c2ccccc2)C1c1ccc([N+](=O)[O-])cc1", "strain or isolate": "AH27/A", "value": "18.4 µM"}
{"compound": "CC(C)(C)c1c(C(c2ccccc2)n2cncn2)cnn1-c1ccccc1", "value": ">200 µM"}
{"compound": "CSC1NN=C(c2snnc2C)N1c1ccc2ccccc2c1", "strain or isolate": "PLM 589", "value": "25 µg/mL"}
{"compound": "OC(Cn1cncn1)(Cn1nnnc1CCN1CCN(c2ccccn2)CC1)c1ccc(F)cc1F", "strain or isolate": "LA314", "value": ">16 µg/mL"}
{"compound": "Clc1ccc(C(Cn2ccnc2)NC/C=C/c2ccccc2)cc1", "value": ">50 µg/mL"}
{"compound": "Cc1nc(N)nc(N)c1C#Cc1ccccc1", "value": "0.4 µg/mL"}
{"compound": "CCCCCCCC(Cn1ccnc1)c1ccc(F)cc1", "value": "<1 µg/mL"}
{"compound": "Cc1c(C(c2ccccc2)n2cncn2)cnn1-c1ccccc1", "value": ">200 µM"}
{"compound": "Cc1nc(C)c(C(=O)NNC(=S)NC23CC4CC(CC(C4)C2)C3)s1", "strain or isolate": "PLM 589", "value": "3.12 µg/mL"}
{"compound": "CCC(Cn1ccnc1)c1ccc(Cl)cc1Cl", "value": "<1 µg/mL"}

Again, the opening 4 rows:

| compound | strain or isolate | read by | value |
|---|---|---|---|
| c1ccc(C(c2cnn(-c3ccccc3)c2)n2ccnc2)cc1 |  |  | 200 µM |
| Cc1nc(C)c(C2=NNC(SCc3ccc(C(F)(F)F)cc3)N2C2C3CC4CC(C3)CC2C4)s1 | PLM 589 |  | 25 µg/mL |
| ONC1=Nc2cnc3ccccc3c2SC1 | IMAT4711 |  | 25 µg/mL |
| CSc1cc(-c2ccc(F)cc2)c(C(=O)O)s1 | CN-17 |  | >100 µg/mL |

Lines come from different laboratories, so protocols vary. Blank or dashed fields: not listed here.